Source: patent publication US20220306702

Target: GST-TAB2 protein substrate [GST: P08515]

B1: mutant NleE R107A (protein)
chain: MINPVTNTQGVSPINTKYAEHVVKNIYPEIKHDYFNESPNIYDKKYISGITRGVAELKQEEFVNEKARRFSYMKTMYSVCPEAFEPISRNEASTPEGSWLTVISGKAPMGQFSVDSLYNPDLHALCELPDICCKIFPKENNDFLYIVVVYRNDSPLGEQRANRFIELYNIKRDIMQELNYELPELKAVKSEMIIAREMGEIFSYMPGEIDSYMKYINNKLSKIE
methylase activity (MTase glo assay): the presence of an R107A mutation in NLeE abolished methylase activity
